These results are taken from US20060280723A1 (priority 2003, published 2006).

In the assay the test system is SARS-HCoV. It is filed as cell-based, SARS human coronavirus (SARS-HCoV).

In the case of “interferon β1a: interferon beta (IFNβ) subtype β1a”, the “Dose-dependent inhibition of SARS-HCoV plaque formation” value is “dose-dependent inhibition”.
